According to publication PMC4658139 (PLoS ONE, 2015):

Key:
[1] = in vitro; conditions: pig; for Papp A→B: p c, permeability coefficient apical to basolateral
[2] = test system: PBCEC monolayer; conditions: pig
[3] = in vitro; conditions: pig

CC(=O)O[C@@H]1C[C@]2(C)[C@@]3(CO)[C@H](O)C(=O)C(C)=C[C@H]3O[C@H]1[C@@]21CO1 [3-AcDON, 3-acetyldeoxynivalenol]
recovery [1]: ~100%
Papp A→B [1]: 66.7 ± 15.3 nm/s

CC1=C[C@H]2O[C@@H]3[C@H](O)C[C@](C)([C@@]2(CO)[C@H](O)C1=O)[C@]31CO1 [DON, deoxynivalenol]
recovery [1]: ~100%
Papp A→B [1]: 11.8 ± 3.1 nm/s
p c, permeability coefficient apical to basolateral [2]: 0.88±0.29 10^-6 cm/s
viability at 10 µM [3]: 85 ± 7%
